In patent US9598481B2 (priority 2012, dated 2017):

Assays:
[1] = tested on: H1N1 A/PR/8/1934; set-up: species or system DBA/2J mice; conditions: mouse
[2] = tested on: H5N1 A/Vietnam/1203/04 influenza A virus; set-up: species or system ferrets (Mustela putorius furo); conditions: in vivo, iv, 25 mg/kg

Molecule | animals protected from lethal challenge ([1]; in vivo) [%] | efficacy versus control treatment group ([1]; in vivo) | infected mice saved (survival) ([1]; in vivo, iv, 15 mg/kg) [%] | minimum efficacious dose in vivo ([1]; iv) [mg/kg] | mortality [2] | survival [2]
mAb 39.29 NCv1: anti-hemagglutinin monoclonal antibody; VL SEQ ID NO:144, VH SEQ ID NO:142 (antibody, V domains shown) VH: QVQLVESGGGVVQPGKSPRLSCAASGPTFSSYAVHWVRQAPGKGLEWVTLISYDGANQYYADSVKGRFTISRDNSKNTVYLQMNSLRPEDTAVYYCAVPGPVFGIFPPWSYFDNWGQGILVTVSS VL: EIVLTQSPATLSVSPGERATLSCRASQVISHNLAWYQQKPGQAPRLLIYGASTRASGIPARFSGSGSGTDYTLTITSLQPEDFAVYYCQHYSNWPPRLTFGGGTKVEIK | 25 | minimal efficacy | 87.5 | 15 |  | 
mAb 39.29 D8C2: anti-hemagglutinin monoclonal antibody; VL SEQ ID NO:140, VH SEQ ID NO:138 (antibody, V domains shown) VH: QVQLVESGGGVVQPGKSLRLSCAASGLTFSSYAVHWVRQAPGKGLEWVTLISYDGANQYYADSVKGRFTISRDNSKNTVYLQMNSLRPEDTAVYYCAVPGPVFGIFPPWSYFDNWGQGILVTVSS VL: EIVLTQSPATLSVSPGERATLSCRASQVISHNLAWYQQKPGQAPRLLIYGASTRASGIPARFSGSGSGTDYTLTITSLQSEDFAVYYCQHYSNWPPRLTFGGGTKVEIK |  |  |  |  | 20% and 10% | 80% and 90%

Several values for one entry are separate records, joined by “and”; a condition that tells them apart may be missing. Equal entries are not always repeated.
